Compound potency records, mixed from different reports. Data source: NIAID ChemDB in PubChem.

Common to all: tests on isolated targets

ICn is the concentration giving n% inhibition. Inhibition is in % at the dose shown (toxicity tests: loss of growth or viability). Blank or dashed fields: not listed here. Lines come from different laboratories, so protocols vary.

compound	strain	tested at	read by	species	read-out	protein	value
O=C1C[C@H](Cc2nccs2)N1C(=O)NCc1ccc(C(F)(F)F)cc1	-	-	-	Human cytomegalovirus	IC50	Protease	4.9 µM
O=C(O)CP(=O)(O)O	TYPE 6	5 µg/mL	-	Human herpesvirus 6	inhibition	DNA polymerase	58.9%
COc1ccc2cc(O)c(C(=O)Nc3ncc(Br)cn3)cc2c1	-	-	-	Human cytomegalovirus	IC50	HCMV DNA polymerase	>40 µM
CCCCCCCC/C=C/CCCCCCCC(=O)Nc1nnc(NCc2ccc(Cl)c(Cl)c2)s1	-	-	-	Human cytomegalovirus	IC50	Polymerase	>25 µM
O=C(NCc1ccc(Cl)cc1)c1c[nH]c2ccc(C#CCO)cc2c1=O	-	-	-	Human cytomegalovirus	Ki	Herpesvirus DNA polymerase	0.95 µM
Nc1nc2c(ncn2CC[C@@H](O)COP(=O)(O)OP(=O)(O)OP(=O)(O)O)c(=O)[nH]1	AD169	-	-	Human cytomegalovirus	Ki	DNA polymerase	3.5 µM
Cc1nc2[nH]cc(C(=O)NCc3ccc(Cl)cc3)c(=O)c2cc1Br	-	20 µM	-	Human cytomegalovirus	inhibition	Polymerase	39%
N/C(=N/OC(=O)c1cccc2ccccc12)c1ccc(Br)cc1Cl	-	-	scintillation proximity / radiometric	Human cytomegalovirus	IC50	Polymerase	2.6 µM
C#Cc1ccc(NC(=O)c2cc3ccccc3cc2O)cc1	-	-	-	Human cytomegalovirus	IC50	HCMV DNA polymerase	19.4 µM
Nc1ccn(C[C@@H](CO)OCP(=O)(O)OP(=O)(O)OP(=O)(O)O)c(=O)n1	-	-	-	Human cytomegalovirus	IC50	DNA polymerase	<100 µM
O=C1C[C@H](Cc2ccco2)N1C(=O)NCc1ccc(C(F)(F)F)cc1	-	-	-	Human cytomegalovirus	IC50	Protease	7.1 µM
CC1(C)C2CC[C@@H](CNc3nnc(NC(=O)c4ccc(C#N)cc4)s3)C1C2	-	-	-	Human cytomegalovirus	IC50	Polymerase	>25 µM
O=C(NCc1ccc(Cl)cc1)c1cn2c3c(cc(CN4CCOCC4)cc3c1=O)OC(c1cccnc1)C2	AD169	-	scintillation proximity / radiometric	Human cytomegalovirus	IC50	DNA polymerase	0.3 µM
O=C(Nc1ccc([N+](=O)[O-])cc1)c1cc2cccc(O)c2cc1O	-	-	-	Human cytomegalovirus	IC50	HCMV DNA polymerase	>100 µM
O=C(NCc1ccc(Cl)cc1)c1cn2c3c(cc(CN4CCOCC4)cc3c1=O)OC(c1cccnc1)C2	-	-	scintillation proximity / radiometric	Human cytomegalovirus	IC50	HCMV polymerase	0.32 µM
COC(=O)C1(Nc2nc3ccc(NC(=O)CN(C)C)c(C)c3c(=O)o2)CC1	-	-	-	Human cytomegalovirus	IC50	Protease	1.4 µM
COC(=O)CC1=C(Cl)C(=O)c2ccccc2C1=O	-	-	scintillation proximity	Human cytomegalovirus	IC50	Protease	>150 µM
Cc1c(Br)ccc2nc(N(C)Cc3ccccc3)oc(=O)c12	-	-	-	Human cytomegalovirus	IC50	Protease	3.1 µM
N/C(=N\OC(=O)c1cccc(Cl)c1Cl)c1ccc(Cl)cc1Cl	-	-	scintillation proximity / radiometric	Human cytomegalovirus	IC50	Polymerase	10 µM
O=C(Nc1ccc(Cl)cc1)c1ccc2ccccc2c1	-	-	-	Human cytomegalovirus	IC50	HCMV DNA polymerase	>100 µM
N/C(=N\OC(=O)c1cc(Cl)cc(Cl)c1)c1ccc(Cl)cc1Cl	-	-	scintillation proximity / radiometric	Human cytomegalovirus	IC50	Polymerase	25 µM
Cc1cccc2nc(N(C(=O)OCc3ccccc3)[C@@H](CCCCN)C(=O)OC(C)(C)C)oc(=O)c12	-	-	-	Human cytomegalovirus	IC50	Protease	1.5 µM
Cc1nc(NCC2CCCCC2)nc(-n2ccnc2C)c1[N+](=O)[O-]	-	-	-	Human cytomegalovirus	IC50	UL70 primase	0.15 µM
Nc1nc2c(ncn2CC[C@H](O)COP(=O)(O)OP(=O)(O)OP(=O)(O)O)c(=O)[nH]1	AD169	-	-	Human cytomegalovirus	Ki	DNA polymerase	13.4 µM
O=C(/C=C/c1ccccc1)Nc1nnc(NCc2ccc3c(c2)OCO3)s1	-	-	-	Human cytomegalovirus	IC50	Polymerase	>25 µM
C[C@@H](Nc1nc2ccc(Cl)cc2c(=O)o1)c1ccccc1	-	-	-	Human cytomegalovirus	IC50	Protease	>10 µM
N#Cc1ccc(C(=O)Nc2nnc(NCCc3ccc(S(N)(=O)=O)cc3)s2)cc1	-	-	-	Human cytomegalovirus	IC50	Polymerase	>25 µM
Cn1nnc(C[C@H]2CC(=O)N2C(=O)NCc2ccc(C(F)(F)F)cc2)n1	-	-	-	Human cytomegalovirus	IC50	Protease	5.7 µM
Cn1cc(C(=O)NCc2ccc(Cl)cc2)c(=O)c2cc(/C=C\CO)cc(F)c21	AD169	-	-	Human cytomegalovirus	IC50	DNA polymerase	0.78 µM
N/C(=N/OC(=O)c1cccc2ccccc12)c1cccc(Cl)c1Cl	-	-	scintillation proximity / radiometric	Human cytomegalovirus	IC50	Polymerase	38.7 µM
CC(=O)C(C(C)=O)C1=C(Cl)C(=O)c2ccccc2C1=O	-	-	scintillation proximity	Human cytomegalovirus	IC50	Protease	1.45 µM
Nc1nc(Cl)cc(Nc2cc(Cl)cc(Cl)c2)n1	AD169	-	-	Human cytomegalovirus	IC50	DNA polymerase	150 µM
COC(=O)[C@H](Cc1ccc(OC)cc1)Nc1nc2cccc(C)c2c(=O)o1	-	-	-	Human cytomegalovirus	IC50	Protease	0.21 µM
O=C(Nc1nnc(NCCc2c[nH]c3ccccc23)s1)c1ccc(Cl)c(Cl)c1	-	-	-	Human cytomegalovirus	IC50	Polymerase	>25 µM
O=C(NCc1ccc(Cl)cc1)c1cn2c3c(cc(CN4CCOCC4)cc3c1=S)OCC2	-	-	scintillation proximity / radiometric	Human cytomegalovirus	IC50	DNA polymerase	0.06 µM
O=c1[nH]c(=O)n([C@H]2C[C@H](O)[C@@H](COP(=O)(O)OP(=O)(O)OP(=O)(O)O)O2)cc1/C=C/Br	Z29 (TYPE 6B)	-	-	Human herpesvirus 6	IC50	DNA polymerase	2.88 µM
O=C(Nc1ccc(Cl)cc1)c1cc2cccc(O)c2cc1O	-	-	-	Human cytomegalovirus	IC50	HCMV DNA polymerase	>100 µM
CCC(=NCCN=C(CC)c1ccccc1O)c1ccccc1O	-	-	-	Human cytomegalovirus	IC50	Proteinase	>308 µM
O=C1C[C@H](Cc2cccs2)N1C(=O)NCc1ccc([N+](=O)[O-])cc1	-	-	-	Human cytomegalovirus	IC50	Protease	1.3 µM
Cn1cc(C(=O)NCc2ccc(Cl)cc2)c(=O)c2cc(CN3CCOCC3)ccc21	-	-	-	Human cytomegalovirus	IC50	Polymerase	0.37 µM
O=C(Nc1nnc(NCCC(c2ccccc2)c2ccccc2)s1)c1ccc([N+](=O)[O-])o1	-	-	-	Human cytomegalovirus	IC50	Polymerase	>25 µM
O=C1C[C@H](Cc2nc3ccccc3s2)N1C(=O)NCc1ccc([N+](=O)[O-])cc1	-	-	-	Human cytomegalovirus	IC50	Protease	0.7 µM
Nc1nc2c(ncn2[C@H]2C[C@H](O)[C@@H](COP(=O)(O)OP(=O)(O)OP(=O)(O)O)O2)c(=O)[nH]1	AD169	-	-	Human cytomegalovirus	Ki	DNA polymerase	0.22 µM
COc1ccccc1C(=O)Nc1nnc(NC[C@@H]2CCC3CC2C3(C)C)s1	-	-	-	Human cytomegalovirus	IC50	Polymerase	<25 µM
Cc1ccc(C(=O)O/N=C(\N)c2ccc(Cl)cc2Cl)cc1	-	-	scintillation proximity / radiometric	Human cytomegalovirus	IC50	Polymerase	>100 µM
COC(=O)[C@H](Cc1ccc(OC)cc1)Nc1nc2ccc(NC(=O)OC(C)(C)C)c(C)c2c(=O)o1	-	-	-	Human cytomegalovirus	IC50	Protease	0.52 µM
N/C(=N\OC(=O)c1cc(Cl)ccc1Cl)c1ccc(Cl)cc1Cl	-	-	scintillation proximity / radiometric	Human cytomegalovirus	IC50	Polymerase	6.7 µM
Cc1cccc2nc(N(CC(=O)OC(C)(C)C)c3ccccc3)oc(=O)c12	-	-	-	Human cytomegalovirus	IC50	Protease	1.4 µM
O=C(Nc1cccc(Cl)c1)c1cc2ccccc2cc1O	-	-	-	Human cytomegalovirus	IC50	HCMV DNA polymerase	>100 µM
COc1cc(OC)cc(/C(N)=N\OC(=O)c2cccc3ccccc23)c1	-	-	scintillation proximity / radiometric	Human cytomegalovirus	IC50	Polymerase	32.7 µM